1 substance from patent publication US20060002932A1, “Methods and compositions for enhancement of immunity by in vivo depletion of immunosuppressive cell activity” (priority 2004, published 2006) can be followed below.

The assay has as its target IL-2 receptor (IL-2R) on human CD4+/CD25high regulatory T cells (human) (UniProt P01589). As to the kind of experiment: cell-based or functional assay.

“denileukin diftitox (DAB389IL-2) (from UniProt P00588 33-418; P60568 21-153)” gave a 7-AAD staining of CD4+ T-cell populations with increasing densities of CD25 of 5 nM.
